Anti-infective test results gathered from many reports (values: NIAID ChemDB through PubChem).

All rows: growth or infection tests; organism: HIV-1; method: luciferase; endpoint: EC50

An empty or dashed field is not shown. ECn: concentration that inhibits the pathogen or its effect by n%. Conditions beyond the fields shown may differ between rows. a–b is a range or a potency band.

smiles,setting,changes,strain,cells,value
C=CCN(C(=O)[C@H](Cc1cc(F)cc(F)c1)NC(=O)c1ccncc1C(=O)N[C@@H](Cc1cc(F)cc(F)c1)C(=O)N(CC=C)c1ccc(OC)cc1)c1ccc(OC)cc1,-,-,NL4-3,MT-2,3.92 µM
Nc1cccc([C@@H]2C[C@H](N3CCCC3=O)c3cc(I)ccc3N2)c1,-,-,NL4-3-Luc,MT-2,54.42 µM
Cc1cn(CC(=O)Nc2ccc([N+](=O)[O-])cn2)c(=O)[nH]c1=O,-,-,VB59,TZM-bl,42.13 µM
C=CCN(C(=O)[C@H](Cc1cc(F)cc(F)c1)NC(=O)NS(=O)(=O)N[C@@H](Cc1cc(F)cc(F)c1)C(=O)N(CC=C)c1ccc(OC)nc1)c1ccc(OC)nc1,-,-,NL4-3,MT-2,0.58 µM
Cc1cc2nc(-c3cccc([N+](=O)[O-])c3)ccc2c(C)c1C,-,-,NL4-3-Luc,MT-2,>189 µM
COc1ncc(OC)c2c(C(=O)C(=O)N3CCC(=C(C#N)c4cncs4)CC3)c[nH]c12,-,-,-,HeLa,<1 µM
COc1cnc(-n2cnc(C)n2)c2c1c(C(=O)C(=O)N1CCN(C(=O)c3ccccc3)CC1)cn2COP(=O)(O)O,-,M426K,NL4-3,U-87,0.0037 µM
O=[N+]([O-])c1cccc(-c2ccc3ccccc3n2)c1,pseudotyped,Delta-VSV-Luc,NL4-3,MT-2,24.63 µM
c1ccc2c(NC3CCNCC3)nc(NCc3ccc(CNCCCNC4CCC4)cc3)nc2c1,-,-,IIIB,TZM-bl,0.1111 µM
C=C(C)[C@]12C[C@@H](C)[C@]34OC5(CCCCCCC[C@H](C)[C@@H]([C@H](C)C(=O)OC)[C@@H]3C(=O)[C@H](O)[C@@]3(CO)O[C@H]3[C@H]4[C@H]1O5)O2,-,-,NL4-3,MT-4,1.08 µM
CC(C)(C#Cc1ccc2c(=O)n(-c3ccc(Cl)c4c(NS(=O)(=O)C5CC5)nn(CC(F)F)c34)c([C@H](Cc3cc(F)cc(F)c3)NC(=O)Cn3nc(C(F)F)c4c3C(F)(F)[C@@H]3C[C@H]43)nc2c1)S(C)(=O)=O,-,-,NL4-3,MT-2,0.000047 µM
O=C(NCc1ccc(F)cc1F)c1cn2cc[nH]c(=O)c2c(O)c1=O,-,G118R,-,HEK 293,0.3723 µM
CC1(C)Oc2cc(O)c3c(=O)c4ccccc4oc3c2[C@@H](OC(=O)C23CCC(C)(C(=O)O2)C3(C)C)[C@H]1OC(=O)C12CCC(C)(C(=O)O1)C2(C)C,-,-,NL4-3,TZM-bl,>4 µM
C[C@@H]1CN(C(=NC#N)c2ccccc2)CCN1C(=O)C(=O)c1c[nH]c2c(-n3ccnn3)ncc(F)c12,-,-,Luciferase reporter virus,HeLa(CD4+) + HeLa,<0.5 µM
CN(C)CCCNCc1ccc(CNc2nc(NC3CCNCC3)c3ccccc3n2)cc1,-,-,IIIB,TZM-bl,>0.5 µM
COc1ccc(S(=O)(=O)N(CC(C)C)C[C@@H](O)[C@H](Cc2ccccc2)NC(=O)Cn2cc(F)c(=O)[nH]c2=O)cc1,-,-,NL4-3,TZM-bl,1.07 µM
CC1CN(C(=O)C(=O)c2c[nH]c3ccccc23)CC/C1=C\c1ccccc1,-,-,-,HeLa,1–5 µM
Cc1nn2cc1CCCCCCC1(C)CCN(CC1)c1c([C@H](OC(C)(C)C)C(=O)O)c(C)nc3cc(nn13)-c1cccc-2c1,-,-,-,MT-2,0.004 µM
CCNC(=O)NC(=O)C(C)OC(=O)c1c2c(nc3ccccc13)/C(=C\c1cccc([N+](=O)[O-])c1)CCC2,pseudotyped,-,-,CEM,4 µM
CC(C)=CCC/C(C)=C/Cn1ccn2cc(C(=O)NCc3ccc(F)cc3F)c(=O)c(O)c2c1=O,-,S230N,-,HEK 293,0.2017 µM
CCCCCCCCCCCCCCCCOC1O[C@@H](CO)[C@H](O)[C@H](O)[C@@H]1O,-,-,89.6,TZM-bl,12.79 µM
CC(C)(C)N=C(c1ccccc1)N1CCN(C(=O)C(=O)c2c[nH]c3ccccc23)CC1,-,-,Luciferase reporter virus,HeLa(CD4+) + HeLa,>0.5 µM
Cc1nc(C(C)O)c(-c2ccc3c(c2)CCN(c2nccc(-c4cccnc4)n2)C3)c(N2CCC(C)(C)CC2)c1[C@H](OC(C)(C)C)C(=O)O,-,-,NL4-3,MT-2,0.01 µM
O=C(NCc1ccc(F)cc1F)c1cn2c(c(O)c1=O)C(=O)NCC2,-,-,-,HEK 293,0.0442 µM
O=C1CCCN1[C@H]1C[C@@H](c2cccc([N+](=O)[O-])c2)Nc2ccc(I)cc21,-,-,NL4-3-Luc,MT-2,>108 µM
O=C(C(=O)N1CCC(=C(c2ccccc2)c2ccccc2)CC1)c1c[nH]c2ccccc12,-,-,-,HeLa,1–5 µM
c1ccc2c(NC3CCNCC3)nc(NCc3ccc(CNCCCNC4CCCCC4)cc3)nc2c1,-,-,IIIB,TZM-bl,0.0684 µM
CCN(CC)C(=O)Oc1ccc2cccnc2c1-c1cccc2cccnc12,pseudotyped,-,YU2,TZM-bl,2.3 µM
Cc1nc(C)c([C@H](OC(C)(C)C)C(=O)O)c(N2CCC(C)(C)CC2)c1-c1ccc2c(c1)CCN(c1cc(C3CCN(C(C)(C)O)CC3)ncc1F)C2,-,-,NL4-3,MT-2,0.01 µM
Cc1ccc(-c2c(C)c3c(c(C)c2[C@H](OC(C)(C)C)C(=O)O)CN(C2CCC[C@@H](C)C2)C3)cc1,-,-,IIIB,MT-4,0.723 µM
O=C(NCc1ccc(F)c(Cl)c1)c1cc2cccnc2n(O)c1=O,pseudotyped,-,-,HOS,>0.0375 µM
COc1ccc(N(C)C(=O)[C@H](Cc2ccccc2)NC(=O)C[C@H](O)C(=O)N[C@@H](Cc2ccccc2)C(=O)N(C)c2ccc(OC)cc2)cc1,-,-,NL4-3,MT-2,3.29 µM
Cc1ccc(Cl)cc1Nc1nc(C(F)(F)F)ccc1C(=O)NN1CCN(c2cccc(Cl)c2)CC1,-,-,IIIB,TZM-bl,10 µM
COc1ccc(N(C)C(=O)C(Cc2cc(F)cc(F)c2)NC(=O)NS(=O)(=O)N[C@@H](Cc2ccccc2)C(=O)N(C)c2ccc(OC)cc2)cc1,-,-,NL4-3,MT-2,0.01 µM
c1ccc2c(NC3CCNCC3)nc(NCc3ccc(CNCCCNC4CCCC4)cc3)nc2c1,-,-,IIIB,TZM-bl,0.0489 µM
O=C(C(=O)N1CCN(C(=NC2CCC2)c2ccccc2)CC1)c1c[nH]c2c(-n3ccnn3)ncc(F)c12,-,-,Luciferase reporter virus,HeLa(CD4+) + HeLa,<0.5 µM
CCCCCC1=NN(C(=O)CCOC(C)=O)OC(CCCCC)C1,-,-,NL4-3,MT-2,0.084 µM
COc1ccc(N(C)C(=O)[C@H](Cc2ccccc2)NC(=O)CCCC(=O)N[C@@H](Cc2ccccc2)C(=O)N(C)c2ccc(OC)cc2)cc1,-,-,NL4-3,MT-2,1.31 µM
O=C(Cn1ccc(=O)[nH]c1=O)Nc1ccccn1,-,-,VB59,TZM-bl,394 µM
O=C(C(=O)N1CCN(C(=O)c2ccccc2)CC1)c1c[nH]c2c(-c3nn[nH]n3)ncc(Cl)c12,-,-,-,HeLa,<1 µM
COc1ccc2nc(-c3cccc(N)c3)ccc2c1,pseudotyped,Delta-VSV-Luc,NL4-3,MT-2,157 µM
Cc1cn(CC(=O)Nc2ccc(Br)cn2)c(=O)[nH]c1=O,-,-,ADA5,TZM-bl,39.43 µM
Cc1cc(S(N)(=O)=O)ccc1NC(=O)COc1ccc(Cl)cc1C(=O)c1cc(F)cc(C(F)(F)F)c1,-,RT-P236L,IIIB,HELA MAGI,0.0051 µM
COc1ccc(N(C)C(=O)[C@H](Cc2ccccc2)NC(=O)/C=C/CC(=O)N[C@@H](Cc2ccccc2)C(=O)N(C)c2ccc(OC)cc2)cc1,-,-,NL4-3,MT-2,0.64 µM
C[C@@H]1CN(C(=O)c2ccccc2)CCN1C(=O)C(=O)c1c[nH]c2nc(-c3ccccc3)ccc12,-,-,-,HeLa,<10 µM
COc1ccc2c(c1)[C@@H](N1CCCC1=O)C[C@@H](c1cccc(N)c1)N2,pseudotyped,Delta-VSV-Luc,NL4-3,MT-2,25.97 µM
O=C(Cn1ccc(=O)[nH]c1=O)Nc1ccc(Br)cn1,-,-,UG070,TZM-bl,70 µM
C/C=C(\C)C(=O)O[C@@H]1[C@@H](C)[C@]2(O)[C@@H]3C=C(C)C(=O)[C@H]3CC(C=O)=C[C@H]2[C@@H]2C(C)(C)[C@]12OCC(C)C,-,-,NL4-3,MT-2,2.56 µM
O=C(NCc1ccc(F)cc1F)c1cn2ccn(CCCCCCO)c(=O)c2c(O)c1=O,-,G118R,-,HEK 293,0.0692 µM
COc1cnc(-n2cnc(C)n2)c2[nH]cc(C(=O)C(=O)N3CCN(C(=NC#N)c4ccccc4)CC3)c12,-,-,Luciferase reporter virus,HeLa(CD4+) + HeLa,<0.5 µM
COc1cccc2c(=O)c3c(OC)cc4c(c3oc12)[C@@H](OC(=O)C12CCC(C)(C(=O)O1)C2(C)C)[C@@H](OC(=O)C12CCC(C)(C(=O)O1)C2(C)C)C(C)(C)O4,-,-,NL4-3,TZM-bl,>4 µM
Cc1ccc(-c2c(C)c3c(c(C)c2[C@H](OC(C)(C)C)C(=O)O)CN(C(=O)N2CCCCCCC2)C3)cc1,-,-,IIIB,MT-4,0.036 µM
CCNC(=O)NC(=O)C(C)OC(=O)c1c2c(nc3ccccc13)/C(=C\c1cccc(OC)c1OC)CC2,pseudotyped,-,-,PBMC,4 µM
O=C(CCC(=O)n1cnc2c([N+](=O)[O-])cccc21)n1cnc2c([N+](=O)[O-])cccc21,-,-,ADA5,TZM-bl,15.4 µM
COc1cnc(-n2ccnn2)c2[nH]cc(C(=O)C(=O)N3CCC(=C(c4ccccc4)c4nnc(C(C)C)o4)CC3)c12,-,-,-,HeLa,<1 µM
Cc1cn([C@H]2C[C@H](N=[N+]=[N-])[C@@H](CO)O2)c(=O)[nH]c1=O,-,-,-,293T,0.03 µM
O=C1CCCN1[C@H]1C[C@@H](c2cccc([N+](=O)[O-])c2)Nc2ccccc21,-,-,NL4-3-Luc,MT-2,>148 µM
Cc1nc(C(C)(C)O)c(-c2ccc3c(c2)CCN(c2nccc(-c4cccnc4)n2)C3)c(N2CCC(C)(C)CC2)c1[C@H](OC(C)(C)C)C(=O)O,-,-,NL4-3,MT-2,0.01 µM
CN(C(=O)[C@H](Cc1cc(F)cc(F)c1)NC(=O)CN1c2ccccc2N(CC(=O)N[C@@H](Cc2cc(F)cc(F)c2)C(=O)N(C)c2ccc3snnc3c2)S1(=O)=O)c1ccc2snnc2c1,-,-,NL4-3,MT-2,0.02 µM
O=C(C(=O)N1CCN(C(=O)c2ccccc2)CC1)c1c[nH]c2c(-c3cnccn3)ccnc12,-,-,-,HeLa,<1 µM
Cc1nc(N)c(-c2ccc3c(c2)CCN(c2nccc(-c4cnccn4)n2)C3)c(N2CCC(C)(C)CC2)c1[C@H](OC(C)(C)C)C(=O)O,-,-,NL4-3,MT-2,0.003 µM
CCNC(=O)NC(=O)C(C)OC(=O)c1c2c(nc3ccccc13)/C(=C\c1cccs1)CCC2,pseudotyped,-,-,CEM,3 µM
CNC(=O)c1cc(Cl)nc2c(C(=O)C(=O)N3CCN(C(=O)c4ccccc4)C[C@H]3C)c[nH]c12,-,-,-,HeLa,<1 µM
C=C(C)[C@]12C[C@@H](C)[C@]34OC5(CCCCCCC[C@@H](C)[C@@H]([C@H](C)C(=O)OC)[C@@H]3C(=O)[C@H](O)[C@@]3(CO)O[C@H]3[C@H]4[C@H]1O5)O2,-,-,NL4-3,MT-4,1.17 µM
O=C(NCc1ccc(F)cc1F)c1cn2ccn(CCCCCO)c(=O)c2c(O)c1=O,-,G118R,-,HEK 293,0.3291 µM
O=C(CCC(=O)Nc1ccc([N+](=O)[O-])cn1)Nc1ccc([N+](=O)[O-])cn1,-,-,UG070,TZM-bl,110.5 µM
CC(C)n1ccn2cc(C(=O)NCc3ccc(F)cc3F)c(=O)c(O)c2c1=O,-,E138K/Q148K,-,HEK 293,0.0651 µM
Cc1cc(C)c(Nc2ccnc(Nc3ccc(C#N)cc3)n2)c(C)c1,-,-,-,TZM-bl,0.0016 µM
COc1ccc(N(C)C(=O)[C@H](Cc2ccccc2)NC(=O)CC(=O)N[C@@H](Cc2ccccc2)C(=O)N(C)c2ccc(OC)cc2)cc1,-,-,NL4-3,MT-2,1.94 µM
Cc1ccnc2c1NC(=O)c1cccnc1N2C1CC1,-,-,NL4-3,TZM-bl,0.0279 µM
Cc1cc(C)c2c(c1)N[C@H](c1cccc(N)c1)C[C@@H]2N1CCCC1=O,-,-,NL4-3-Luc,MT-2,>149 µM

7 of the rows above, restated:

smiles,setting,changes,strain,cells,value
CC(C)(C)N=C(c1ccccc1)N1CCN(C(=O)C(=O)c2c[nH]c3ccccc23)CC1,-,-,Luciferase reporter virus,HeLa(CD4+) + HeLa,>0.5 µM
O=C(Cn1ccc(=O)[nH]c1=O)Nc1ccccn1,-,-,VB59,TZM-bl,394 µM
COc1ccc(S(=O)(=O)N(CC(C)C)C[C@@H](O)[C@H](Cc2ccccc2)NC(=O)Cn2cc(F)c(=O)[nH]c2=O)cc1,-,-,NL4-3,TZM-bl,1.07 µM
COc1cnc(-n2ccnn2)c2[nH]cc(C(=O)C(=O)N3CCC(=C(c4ccccc4)c4nnc(C(C)C)o4)CC3)c12,-,-,-,HeLa,<1 µM
Cc1cc(C)c(Nc2ccnc(Nc3ccc(C#N)cc3)n2)c(C)c1,-,-,-,TZM-bl,0.0016 µM
O=C(NCc1ccc(F)cc1F)c1cn2cc[nH]c(=O)c2c(O)c1=O,-,G118R,-,HEK 293,0.3723 µM
O=C(C(=O)N1CCC(=C(c2ccccc2)c2ccccc2)CC1)c1c[nH]c2ccccc12,-,-,-,HeLa,1–5 µM